# Earlier results as cited in patent publication US20230201290A1, “TGF-BETA INHIBITION, AGENTS AND COMPOSITION THEREFOR” (GMP BIOTECHNOLOGY LIMITED, priority 2020, published 2023).
# Test system: SARS-CoV replicon
# Conditions: cited from earlier work
substance,measurement,value
IFN-β 1a: interferon,reduction of luciferase activity,46%
